Measured values from several laboratories, pooled; numbers as filed in NIAID ChemDB.

Shared fields: toxicity to cultured cells; cell line: HeLa; measure: CC50

Lines come from different laboratories, so protocols vary.

{"compound": "Cc1cccc(OCCNC(=O)c2ccccc2)c1", "value": ">195.8 µM"}
{"compound": "CCC(=C/C(C)C/C=C/C(C)=C/C(C)C(=O)C(C)C(OC(C)=O)C(C)C/C(C)=C/C(=O)OC)/C=C/C1OC(=O)C=CC1C", "value": "0.001 µM"}
{"compound": "O=C1C2CC3=COC=CC(O)C3N2C(=O)C2=CC3=COC=CC(O)C3N12", "value": "3 µg/mL"}
{"compound": "CC(=O)O[C@@H]1CC2C[C@@H](O)[C@H]3[C@](C)(C(=O)O)CCC[C@]3(C)[C@]23CC[C@]1(C)C3", "value": "228 µM"}
{"compound": "O=C(NCCOc1ccccc1)c1ccccc1O", "value": "137.2 µM"}
{"compound": "O[C@@H]1[C@@H](OCc2ccccc2)[C@@H](COCc2ccccc2)O[C@H]1n1cnc2cc(Cl)c(Cl)cc21", "value": "≥40 µg/mL"}
{"compound": "CCO[C@@]12CC3=COC=CC(OC(C)=O)C3N1C(=O)[C@]1(S)CC3=COC=CC(OC(C)=O)C3N1C2=O", "value": "82 µg/mL"}
{"compound": "Clc1ccc(C2CCc3ccccc3O2)c(Cl)c1", "value": "12.5 µg/mL"}
{"compound": "CC(C)c1ccc(OCCNC(=O)c2ccccc2Cl)cc1", "value": "105.4 µM"}
{"compound": "N=C(N)c1cn([C@@H]2O[C@H](CO)[C@@H](O)[C@@H]2O)c2ncnc(N)c12", "value": ">100 µM"}
{"compound": "C#C[C@]1(CO)O[C@@H](n2cnc3c(=O)[nH]cnc32)C[C@@H]1O", "value": ">200 µM"}
{"compound": "CCC(=C/C(C)C/C=C/C(C)=C/C(C)C(=O)C(C)C(OC(C)=O)C(C)C/C(C)=C/C(=O)O)/C=C/C1OC(=O)C=CC1C", "value": "0.006 µM"}
{"compound": "C#C[C@]1(CO)O[C@@H](n2cc(C)c(=O)[nH]c2=O)C[C@@H]1O", "value": "200 µM"}
{"compound": "O[C@H]1[C@@H](O)COC(n2cnc3cc(Cl)c(Cl)cc32)[C@@H]1O", "value": ">400 µg/mL"}
{"compound": "C#C[C@]1(CO)O[C@@H](n2cnc3c(N)ncnc32)C[C@@H]1O", "value": ">200 µM"}
{"compound": "NC(=S)c1cn([C@H]2C[C@H](O)[C@@H](CO)O2)c2ncnc(N)c12", "value": "3 µM"}
{"compound": "CCN1C[C@]2(COC)[C@H](O)CC(OC)[C@]34C1[C@H](CC23OC)[C@]1(OC(C)=O)[C@H]2[C@@H](OC(=O)c3ccccc3)[C@](O)(C[C@H]24)[C@@H](OC)[C@@H]1O", "value": "25 µg/mL"}
{"compound": "Nc1nccc2c1ncn2[C@@H]1C[C@H](CO)[C@@H](O)[C@H]1O", "value": "2 µg/mL"}
{"compound": "C[C@H]1[C@@H](CCCOP(=O)(O)Oc2ccccc2)O[C@@H]2OC3(C)CC[C@H]4[C@H](C)CC[C@@H]1[C@@]24OO3", "value": "68.4 µM"}
{"compound": "NC(=O)c1c[se]c([C@@H]2O[C@H](CO)[C@@H](O)[C@H]2O)n1", "value": "3.125–6.25 µg/mL"}
{"compound": "CC(=O)OC1C=COC=C2C[C@@H]3C(=O)N4C5C(=COC=CC5OC(C)=O)C[C@H]4C(=O)N3C21", "value": "60 µg/mL"}
{"compound": "C=C1CCOC2(C(O)C(C)(O)CO)NC(=O)C1(O)NC2=O", "value": ">200 µg/mL"}
{"compound": "Cc1cccc(OCCNC(=O)c2ccc(O)cc2Cl)c1", "value": "119.4 µM"}
{"compound": "CC(=O)OC1C=COC=C2C[C@@]3(SC(C)=O)C(=O)N4C5C(=COC=CC5OC(C)=O)C[C@@]4(SC(C)=O)C(=O)N3C21", "value": "40 µg/mL"}
{"compound": "C/C=C(\\C)CC(C)C(O)C(C)C(=O)C(C)/C=C(C)/C=C/CC(C)C(=O)O", "value": "0.171 µM"}
{"compound": "CN1C(=O)[C@]23CC4=CC=C[C@H](O)[C@H]4N2C(=O)[C@@]1(CO)S3", "value": "0.9 µg/mL"}
{"compound": "CCCOC(=O)C(CCSC[C@H]1O[C@@H](n2ccc3c(N)ncnc32)[C@H](O)[C@@H]1O)NC(=O)C(F)(F)F", "value": ">200 µg/mL"}
{"compound": "Cc1cccc(OCCNC(=O)c2cc3ccccc3cc2O)c1", "value": "133.5 µM"}
{"compound": "OC[C@H]1O[C@@H](n2cnc3cc(Cl)c(Cl)cc32)[C@@H](O)[C@H]1O", "value": "≥200 µg/mL"}
{"compound": "CCOc1cc(O)c(C(=O)NCc2ccc(NC)cc2)c(OC)c1", "value": "≥25 µg/mL"}
{"compound": "NC(=O)c1cn([C@@H]2O[C@H](CO)[C@@H](O)[C@@H]2O)c2ncnc(N)c12", "value": "15 µM"}
{"compound": "COC(=O)[C@]1(C)CCC[C@@]2(C)[C@H]1[C@H](O)CC1CC(=O)[C@]3(C)CC[C@]12C3", "value": "210 µM"}
{"compound": "O=C1CC(=O)N([C@@H]2O[C@H](CO)[C@@H](O)[C@H]2O)C(=O)N1", "value": "200 µg/mL"}
{"compound": "Nc1ccn([C@H]2CC[C@@H](CO)O2)c(=O)n1", "value": ">100 µM"}
{"compound": "C#C[C@]1(CO)O[C@@H](n2ccc(N)nc2=O)[C@@H](O)[C@@H]1O", "value": ">200 µM"}
{"compound": "CC(=O)OC1C=COC=C2C[C@@]34NC(=S)S[C@]5(CC6=COC=CC(OC(C)=O)C6N5C3=O)C(=O)N4C21", "value": ">25 µg/mL"}
{"compound": "CCC(=C/C(C)C/C=C/C(C)=C/C(C)C(=O)C(C)C(O)C(C)C/C(C)=C/C(=O)OC)/C=C/C1OC(=O)C=CC1C", "value": "0.002 µM"}
{"compound": "C[C@@]12CC[C@]3(C1)C(C[C@@H](O)[C@H]1[C@](C)(CO)CCC[C@@]13C)C[C@H]2O", "value": "290 µM"}
{"compound": "Cc1cccc(OCCNC(=O)c2ccc(N(C)C)cc2Cl)c1", "value": "117.5 µM"}
{"compound": "C/C=C(\\CO)C(=O)O[C@H]1[C@H](O)[C@@H](C(=O)OC)O[C@@H]2C[C@H]3O[C@@H](n4cnc5c(N)ncnc54)[C@H](OC)[C@H]3O[C@]21O", "value": "100 µg/mL"}
{"compound": "Cc1cccc(OCCNC(=O)c2c(Cl)ccc3cc(Cl)cnc23)c1", "value": ">133.3 µM"}
{"compound": "N/C(=N/O)c1cn([C@H]2C[C@H](O)[C@@H](CO)O2)c2ncnc(N)c12", "value": "90 µM"}
{"compound": "CC(=O)N[C@H]1[C@@H](O[C@@H]2O[C@H](C[C@@H](O)[C@H]3O[C@@H](n4ccc(=O)[nH]c4=O)[C@H](O)[C@@H]3O)[C@H](O)[C@H](O)[C@H]2NC(=O)/C=C/CC(C)C)O[C@H](CO)[C@@H](O)[C@@H]1O", "value": "1 µM"}
{"compound": "CC/C=C\\C/C=C\\C/C=C\\CCCCCCCCO", "value": "25 µg/mL"}
{"compound": "NC(=O)c1c[se]c([C@@H]2O[C@H](CO)[C@@H](O)[C@H]2O)n1", "value": "7.9 µM"}
{"compound": "COc1cc(O)c2c(=O)cc(-c3ccc(OC)c(-c4c(O)cc(O)c5c(=O)cc(-c6ccc(O)cc6)oc45)c3)oc2c1", "value": "19 µg/mL"}
{"compound": "CCOC(=O)C1=C[C@@H](OC(CC)CC)[C@H](NC(C)=O)[C@@H](N)C1", "value": ">100 µg/mL"}
{"compound": "CCCOC(=O)C(N)CCSC[C@H]1O[C@@H](n2ccc3c(N)ncnc32)[C@H](O)[C@@H]1O", "value": "100 µg/mL"}
{"compound": "C#C[C@]1(CO)O[C@@H](n2cnc3c(=O)[nH]c(N)nc32)C[C@@H]1O", "value": "52 µM"}
{"compound": "CC(=O)OC1C=COC=C2C[C@@]34SC(=O)S[C@]5(CC6=COC=CC(OC(C)=O)C6N5C3=O)C(=O)N4C21", "value": "111 µg/mL"}
{"compound": "OCCOC([C@H](O)CO)n1cnc2cc(Cl)c(Cl)cc21", "value": "≥400 µg/mL"}
{"compound": "Cc1cccc(NCc2cc3ccccc3[nH]c2=O)c1", "value": "<189.2 µM"}
{"compound": "CCCOC(=O)C(CCSC[C@H]1O[C@@H](n2ccc3c(N)ncnc32)[C@H](O)[C@@H]1O)NC(=O)COC", "value": ">200 µg/mL"}
{"compound": "CCC(=C/C(C)C/C=C/C(C)=C/C(CO)C(=O)C(C)C(O)C(C)C/C(C)=C/C(=O)OC)/C=C/C1OC(=O)C=CC1C", "value": "0.002 µM"}
{"compound": "NC(=O)c1c[se]c(C2OC(CO)C(O)C2O)c1", "value": "6.4 µM"}
{"compound": "O=C(NS(=O)(=O)OC[C@H]1O[C@@H](n2ccc(=O)[nH]c2=O)[C@H](O)[C@@H]1O)O[C@H]1O[C@H](COC(=O)c2ccccc2)[C@@H](OC(=O)c2ccccc2)[C@H](OC(=O)c2ccccc2)[C@H]1OC(=O)c1ccccc1", "value": ">220 µM"}
{"compound": "C#Cc1c(C(N)=O)ncn1[C@@H]1O[C@H](CO)[C@@H](O)[C@H]1O", "value": "0.21 µg/mL"}
{"compound": "Nc1nc(NC2CC2)c2ncn([C@H]3C=C[C@@H](CO)O3)c2n1", "value": "500 µM"}
{"compound": "Cc1cccc(OCCNC(=O)c2ccc([N+](=O)[O-])cc2Cl)c1", "value": ">149.4 µM"}
{"compound": "CN1C(=O)[C@]23CC4=CC=C[C@H](O)[C@H]4N2C(=O)[C@@]1(CO)SS3", "value": "0.6 µg/mL"}
{"compound": "COC(=O)[C@]1(C)CCC[C@@]2(C)[C@H]1[C@H](OC(=O)c1ccccc1)CC1CC(=O)[C@]3(C)CC[C@]12C3", "value": "17.8 µM"}
{"compound": "CC(=O)N[C@H](C(=O)N[C@H](C(=O)N1CCC[C@H]1C(=O)NC1(C(=O)O)CC1)C(C)C)C1CCCCC1", "value": "10 µg/mL"}
{"compound": "Clc1cc2nc[nH]c2cc1Cl", "value": "≥40 µg/mL"}

7 of the rows above, restated:

compound | value
CC/C=C\C/C=C\C/C=C\CCCCCCCCO | 25 µg/mL
CCC(=C/C(C)C/C=C/C(C)=C/C(C)C(=O)C(C)C(O)C(C)C/C(C)=C/C(=O)OC)/C=C/C1OC(=O)C=CC1C | 0.002 µM
C#C[C@]1(CO)O[C@@H](n2cnc3c(=O)[nH]c(N)nc32)C[C@@H]1O | 52 µM
C[C@@]12CC[C@]3(C1)C(C[C@@H](O)[C@H]1[C@](C)(CO)CCC[C@@]13C)C[C@H]2O | 290 µM
CCCOC(=O)C(CCSC[C@H]1O[C@@H](n2ccc3c(N)ncnc32)[C@H](O)[C@@H]1O)NC(=O)C(F)(F)F | >200 µg/mL
NC(=O)c1c[se]c([C@@H]2O[C@H](CO)[C@@H](O)[C@H]2O)n1 | 3.125–6.25 µg/mL
COc1cc(O)c2c(=O)cc(-c3ccc(OC)c(-c4c(O)cc(O)c5c(=O)cc(-c6ccc(O)cc6)oc45)c3)oc2c1 | 19 µg/mL

Two numbers with a dash give a range or band. CCn is the concentration with n% toxicity to the cells.